# From patent US7407783B2, “Fructosylamine oxidase” (priority 2002, dated 2008)
# Test system: FAO-Q2
# Experiment: Substrate specificity of FAO-Q2 (FAO activity, rate method, H2O2 colorimetry)
# Format: biochemical, Fusarium proliferatum
# Conditions: for Relative activity (%) FAO-Q2: activity of FAO-Q2 on the substrate, FV = 100
# Experimental: Titration of enzyme can be performed by a method known in the art (e.g., kinetic method), for example, that described in Example 1 (3). In this method, hydrogen peroxide generated by the reaction of an FAO with a glycated amino acid or peptide is measured on the basis of absorbance (505 nm) of quinone pigment produced in the presence of hydrogen peroxide. The amount (μmole) of hydrogen peroxide generated per minute is calculated on the basis of molar absorptivity (5.16×10^3 M^−1 cm^−1) of quinone pigment and the resultant numerical value is taken as a unit (U) of enzyme activity.
# FAO activity of the crude enzyme solution was determined by the aforementioned rate method. The time-course of generation of hydrogen peroxide in the reaction mixture below was measured by a colorimetric method, and FAO activity was evaluated.
# A mixture (total 3 ml) except for the enzyme solution was equilibrated at 30° C. After adding the enzyme solution, the time-course of absorbance at 505 nm was measured. The amount (μmole) of hydrogen peroxide generated per minute was calculated on the basis of molar absorptivity (5.16×10^3 M^−1 cm^−1) of quinone pigment produced, and the resultant numerical value was taken as a unit(U) of enzyme activity. As a result, a strain having FAO was obtained.
# The substrate specificity of the enzymes (FAO-Q1, FAO-Q2) contained in 2 fractions separated in (1), 3) above was determined. The FAO activity was measured using the respective two fractions as an enzyme solution according to the method described in Example 1(3). As a substrate, FV, FVH, FVHL, FVL, FVLS and FZL were used.
Substance,Activity of FAO-Q2 on the substrate (in words),Relative activity (%) FAO-Q2 [%]
fructosyl valine-histidine (VH) [FVH],active,2.4
fructosyl valine-leucine (VL) [FVL],–,0.6
